Record: PubChem BioAssay AID1259414 (Drosophila RNAi Screening Center, 2018)
Aim: 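Host factors increasing or decreasing Wolbachia levels in cultured fly cells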 (primary screen). Cell system: Drosophila JW18 cells infected with Wolbachia. Reagent: long dsRNA against Drosophila genes, 0.25 µg dsRNA per well of a 384-well plate. Timing: 5 days. Treatment: cells persistently infected with Wolbachia before knock-down; no added drug. Detection: 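Automated imaging of bacterial rRNA staining divided by host cell count, reported as plate-normalised robust z-score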. Reading the numbers: Wolbachia per cell robust z: higher = more Wolbachia per host cell than the plate typical. Active means: 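Active if absolute robust z reaches 1.5 in two or more of three replicates, leaving out multi- or no-target dsRNAs, genes unexpressed in JW18 and A1 wells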.
The screen tested about 24,000 reagents; shown is a random part of those that have a named target and a result. In the full data, about 1,210 (5%) got an active call. 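Inactive calls also include excluded dsRNAs with several or no targets, genes unexpressed in JW18, and well A1, regardless of score.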 A plus sign joins genes that one reagent is predicted to hit.

no.	target	DRSC id	Wolbachia per cell robust z, rep 1	Wolbachia per cell robust z, rep 2	Wolbachia per cell robust z, rep 3	Call
1	PheRS-m (GeneID 36547)	DRSC05915	0.247	0.72	-2.16	inactive
2	CG4328 (GeneID 39405)	DRSC23146	1.5	1.11	0.309	inactive
3	CG4328 (GeneID 39405)	DRSC28606	1.39	-0.36	-0.473	inactive
4	CG4480 (GeneID 34864)	DRSC02750	-0.972	-0.0578	0.0224	inactive
5	CG7326 (GeneID 32882)	DRSC20037	0.485	-0.375	0.564	inactive
6	mab-21 (GeneID 44127)	DRSC18791	-0.378	0.325	-0.294	inactive
7	mab-21 (GeneID 44127)	DRSC26005	0.0156	0.628	0.0643	inactive
8	CG17186 (GeneID 42363)	DRSC15180	-0.483	0.932	-6.16	inactive
9	CG17186 (GeneID 42363)	DRSC27612	-0.994	-1.85	0.653	inactive
10	CG15548 (GeneID 43667)	DRSC15086	0.286	0.679	-2.52	inactive
11	CG15548 (GeneID 43667)	DRSC26941	0.0972	0.779	2.71	inactive
12	CG3792 (GeneID 33717)	DRSC02725	-0.875	0.246	0.181	inactive
13	CG7453 (GeneID 32903)	DRSC20046	-0.425	-0.728	0.0377	inactive
14	CG7453 (GeneID 32903)	DRSC24580	-0.622	-3.28	-0.634	inactive
15	CG13540 (GeneID 37686)	DRSC04182	-0.102	-2.36	-0.684	inactive
16	CG43897 (GeneID 39153)	DRSC10173	0.712	-0.136	-0.102	inactive
17	CG43897 (GeneID 39153)	DRSC10967	1.42	0.144	0.447	inactive
18	CG43897 (GeneID 39153)	DRSC25184	1.13	0.861	0.412	inactive
19	CG43897 (GeneID 39153)	DRSC25785	-4.81	-0.799	-0.722	inactive
20	CG5892 (GeneID 42522)	DRSC15910	-5.27	0.629	-0.741	inactive
21	CG5892 (GeneID 42522)	DRSC24710	-0.334	-0.19	-2.33	inactive
22	CG7142 (GeneID 42194)	DRSC16204	-0.418	-0.369	-0.614	inactive
23	CG7142 (GeneID 42194)	DRSC26968	-0.568	-0.16	0.511	inactive
24	CG2061 (GeneID 32042)	DRSC19348	0.00854	0.635	-1.84	inactive
25	Hsp67Bc (GeneID 39071)	DRSC11193	0.767	-0.774	-0.579	inactive
26	Hsp67Bc (GeneID 39071)	DRSC28175	-0.16	0.499	0.294	inactive
27	CG15617 (GeneID 36871)	DRSC06570	-4.47	1.03	-1.74	inactive
28	CG15617 (GeneID 36871)	DRSC27918	-0.91	-0.112	-0.44	inactive
29	mt:ND3 (GeneID 19893542)	DRSC40643	0.388	0.622	0.85	inactive
30	RhoGAP93B (GeneID 42496)	DRSC15488	-0.549	0.575	0.541	inactive
31	Psf1 (GeneID 38136)	DRSC08638	0.77	0.416	0.805	inactive
32	Psf1 (GeneID 38136)	DRSC24486	0.239	-0.191	-0.424	inactive
33	Eogt (GeneID 33424)	DRSC00727	0.53	-0.592	-12.9	inactive
34	Eogt (GeneID 33424)	DRSC26180	0.506	-0.61	-0.647	inactive
35	CG7606 (GeneID 8673956)	DRSC16268	0.452	1.58	0.656	inactive
36	Hcf (GeneID 43788)	DRSC17143	-0.839	1.54	-2.46	inactive
37	CG8818 (GeneID 36375)	DRSC07275	-0.758	-0.528	0	inactive
38	CG8818 (GeneID 36375)	DRSC28138	0.061	-0.685	-0.106	inactive
39	Polr1D + DCTN6-p27	DRSC02094	0.274	0.549	0.0163	inactive
40	uex (GeneID 5740320)	DRSC20786	-0.585	-0.479	-0.325	inactive
41	uex (GeneID 5740320)	DRSC27422	0.0934	-2.21	-0.921	inactive
42	uex (GeneID 5740320)	DRSC40575	-0.143	0.87	0.316	inactive
43	CCT4 (GeneID 34674)	DRSC02865	1.38	0.147	1.25	inactive
44	CCT4 (GeneID 34674)	DRSC28909	0.963	0.973	0.952	inactive
45	RpL28 + snoRNA:Me28S-C3351	DRSC26182	0.704	-0.443	3.82	inactive
46	eIF3f1 (GeneID 40587)	DRSC12328	3.1	2.23	3.61	active
47	eIF3f1 (GeneID 40587)	DRSC26155	0.467	1.48	-0.451	inactive
48	Glyat (GeneID 3885627)	DRSC37806	1.18	1.19	1.2	inactive
49	Jhbp6 (GeneID 40479)	DRSC11714	0.0695	0.709	-0.325	inactive
50	Jhbp6 (GeneID 40479)	DRSC26892	0.194	0.419	-1.3	inactive
51	Fadd (GeneID 42594)	DRSC14122	0.731	0.807	0.231	inactive
52	Coprox (GeneID 44701)	DRSC01996	1.32	0.346	0.47	inactive
53	Coprox (GeneID 44701)	DRSC28744	0.0832	-1.67	-2.56	active
54	Vps25 (GeneID 35847)	DRSC06486	-0.391	-2.34	-0.175	inactive
55	CG13101 (GeneID 34221)	DRSC02201	-0.0912	0.523	-0.11	inactive
56	CG30033 (GeneID 246406)	DRSC24832	-0.246	-1.07	-0.484	inactive
57	RpL21 (GeneID 35453)	DRSC03704	2.49	2.04	1.54	active
58	CCT3 (GeneID 42029)	DRSC16602	-1.04	-0.00231	0.471	inactive
59	IleRS-m (GeneID 39762)	DRSC10506	-0.394	0.00837	0.123	inactive
60	Cdk1 (GeneID 34411)	DRSC03504	5.61	6.41	7.26	active
61	Cdk1 (GeneID 34411)	DRSC40860	0.994	1.6	0.851	inactive
62	ATbp (GeneID 5740592)	DRSC20906	0.51	0.452	0.588	inactive
63	ATbp (GeneID 5740592)	DRSC29661	0.934	0.897	0.753	inactive
64	Pp2A-29B (GeneID 2768940)	DRSC03400	0.727	-0.143	-0.0489	inactive
65	Pp2A-29B (GeneID 2768940)	DRSC28394	0.308	0.138	0.227	inactive
66	nom (GeneID 41038)	DRSC16389	-0.521	-0.438	0.338	inactive
67	nom (GeneID 41038)	DRSC26026	-0.754	-0.0963	0.238	inactive
68	brn (GeneID 31358)	DRSC18746	0.342	0.53	0.126	inactive

Entries listed so far marked active (4):
target	DRSC id	Wolbachia per cell robust z, rep 1	Wolbachia per cell robust z, rep 2	Wolbachia per cell robust z, rep 3	Call
eIF3f1 (GeneID 40587)	DRSC12328	3.1	2.23	3.61	active
Coprox (GeneID 44701)	DRSC28744	0.0832	-1.67	-2.56	active
RpL21 (GeneID 35453)	DRSC03704	2.49	2.04	1.54	active
Cdk1 (GeneID 34411)	DRSC03504	5.61	6.41	7.26	active
